Measured values from several laboratories, pooled; numbers as filed in NIAID ChemDB.

Common to all: enzyme or target tests; species: HIV-1; protein: Protease

Conditions beyond the fields shown may differ between rows. ICn is the concentration giving n% inhibition. Blank or dashed fields: not listed here.

| SMILES | read by | endpoint | value |
|---|---|---|---|
| CCCN=C(NC#N)NCCCCC(C)(C)CN(C[C@@H](O)[C@H](Cc1ccccc1)NC(=O)O[C@H]1CO[C@H]2OCC[C@H]21)S(=O)(=O)c1ccc2c(c1)OCO2 | fluorescence | Ki | <0.001 µM |
| CC(C)CN(C[C@@H](O)[C@H](Cc1ccccc1)NC(=O)Cc1c[nH]c2ccccc12)S(=O)(=O)c1ccc(Br)cc1 |  | IC50 | 0.016 µM |
| COC(=O)NCCCC(C)(C)CN(C[C@@H](O)[C@H](Cc1ccccc1)NC(=O)O[C@H]1CO[C@H]2OCC[C@H]21)S(=O)(=O)c1ccc(N)cc1 | fluorescence | Ki | <0.001 µM |
| CCCCCC(=O)O[C@H]1CC[C@]2(C)[C@H]3CC=C4[C@@H]5CC(C)(C)CC[C@]5(C(=O)OCc5ccccc5)CC[C@@]4(C)[C@]3(C)CC[C@H]2C1(C)C | FRET | IC50 | >1200 µg/mL |
| COc1cc2c(c(O)c1OC)-c1c(cc3c(c1OC)OCO3)[C@H](OC(=O)/C=C/c1ccccc1)[C@H](C)[C@H](C)C2 | HPLC | IC50 | 50 µg/mL |
| CCCC(=O)O[C@@H]1C[C@]2(C)[C@H]3CC=C4[C@@H]5CC(C)(C)CC[C@]5(C(=O)O)CC[C@@]4(C)[C@]3(C)CC[C@H]2C(C)(C)[C@H]1O | FRET | IC50 | >1200 µg/mL |
| C[C@H]1[C@H](C)CC[C@]2(C(=O)O)CC[C@]3(C)C(=CC[C@@H]4[C@@]5(C)CC[C@H](OC(=O)C(=O)O)C(C)(C)[C@@H]5CC[C@]43C)[C@H]12 | HPLC | IC50 | 7 µM |
| CCC(C)[C@H](NC(=O)[C@H](C(C)C)[C@@H](O)[C@H](O)C(=O)[C@H](CC(C)C)NC(=O)[C@H](Cc1cnc[nH]1)NC(=O)[C@H](Cc1ccccc1)NC(=O)OC(C)(C)C)C(=O)NCc1ccccn1 |  | Ki | 0.028 µM |
| CCOC(=O)NCCCCC(C)(C)CN(C[C@@H](O)[C@H](Cc1ccccc1)NC(=O)O[C@H]1CO[C@H]2OCC[C@H]21)S(=O)(=O)c1ccc(N)cc1 | fluorescence | Ki | <0.001 µM |
| CC(C)CCN(C[C@@H](O)[C@H](Cc1ccccc1)NC(=O)OCc1ccccc1)S(=O)(=O)c1ccc(F)cc1 |  | IC50 | 0.03 µM |
| CC(C)(C)OC(=O)N[C@H]1CC(=O)NCCNC(=O)C[C@@H](C(N)=O)NC(=O)[C@H](Cc2ccccc2)NCC(O)[C@H](Cc2ccccc2)NC1=O |  | IC50 | >10 µM |
| CC(C)CCN(C[C@@H](O)[C@H](Cc1ccccc1)NC(=O)OCc1ccccc1)S(C)(=O)=O |  | IC50 | <10 µM |
| COC(=O)[C@]12CCC(C)(C)CC1C1=CCC3[C@@]4(C)CCC(=O)C(C)(C)C4CC[C@@]3(C)[C@]1(C)CC2 | HPLC | IC50 | 20 µM |
| O=S1(=O)N(CC2CC2)[C@H](Cc2ccccc2)CC(O)C[C@@H](Cc2ccccc2)N1CC1CC1 |  | Ki | 1.5 µM |
| COc1ccc(S(=O)(=O)N(C[C@@H](O)[C@H](Cc2ccccc2)NC(=O)O[C@H]2CO[C@H]3OCC[C@H]32)CC(C)(C)CCC(C)=O)cc1 | fluorescence | Ki | <0.001 µM |
| C[C@H]1[C@H](C)CC[C@]2(C)CC[C@]3(C)C(=CC[C@@H]4[C@@]5(C)CC[C@H](O)C(C)(C)[C@@H]5CC[C@]43C)[C@H]12 | HPLC | IC50 | 80 µM |
| CC(C)OC(=O)NCCC(C)(C)CN(C[C@@H](O)[C@H](Cc1ccccc1)NC(=O)O[C@H]1CO[C@H]2OCC[C@H]21)S(=O)(=O)c1ccc(N)cc1 | fluorescence | Ki | <0.001 µM |
| C=C1C[C@]2(C)C(C/C(=C\O)C3[C@@H]([C@@]4(C)CCCC(C)(C)O4)CC[C@]32C)[C@@]2(C)C/C(=C(/O)C(=O)OC)C(C)(C)C12 | HPLC | IC50 | >198 µM |
| CC(C)CCN(C[C@@H](O)[C@H](Cc1ccccc1)NC(=O)OCc1ccccc1)S(=O)(=O)Cc1ccccc1 |  | IC50 | >10 µM |
| CC[C@H](C)[C@H](NC(=O)[C@H](Cc1ccccc1)NCC(O)[C@H](Cc1ccccc1)NC(=O)OC(C)(C)C)C(=O)N[C@@H](Cc1ccccc1)C(=O)OC |  | IC50 | <10 µM |
| CC(=O)ONc1ccc(S(=O)(=O)N(CC(C)C)C[C@@H](O)[C@H](Cc2ccccc2)NC(=O)Cc2c[nH]c3ccccc23)cc1 |  | IC50 | 0.008 µM |
| CC[C@H](C)[C@H](NC(=O)CN(N)C(=O)[C@H](Cc1ccccc1)NC(=O)OC(C)(C)C)C(=O)N[C@@H](Cc1ccccc1)C(=O)OC |  | IC50 | >10 µM |
| CC1(C)CC[C@]2(C(=O)O)CC[C@]3(C)C(=CCC4[C@@]5(C)CC[C@H](OC(=O)CCCCCCC(=O)O)C(C)(C)C5CC[C@]43C)C2C1 | HPLC | IC50 | 3 µM |
| CCCCCC(=O)O[C@@H]1C[C@]2(C)[C@H]3CC=C4[C@@H]5CC(C)(C)CC[C@]5(C(=O)OCc5ccccc5)CC[C@@]4(C)[C@]3(C)CC[C@H]2C(C)(C)[C@H]1O | FRET | IC50 | >1200 µg/mL |
| CCC(=O)O[C@H]1c2cc3c(c(OC)c2-c2c(cc(OC)c(OC)c2O)C[C@@H](C)[C@H]1C)OCO3 | HPLC | IC50 | >100 µg/mL |
| COC(=O)NCC(=O)NCCCC(C)(C)CN(C[C@@H](O)[C@H](Cc1ccccc1)NC(=O)O[C@H]1CO[C@H]2OCC[C@H]21)S(=O)(=O)c1ccc2c(c1)OCO2 | fluorescence | Ki | <0.001 µM |
| CC1(C)CC[C@]2(C(=O)O)CC[C@]3(C)C(=CCC4[C@@]5(C)CC[C@H](NC(=O)CCCCC(=O)N[C@H]6CC[C@@]7(C)C(CC[C@]8(C)C7CC=C7C9CC(C)(C)CC[C@]9(C(=O)O)CC[C@]78C)C6(C)C)C(C)(C)C5CC[C@]43C)C2C1 | HPLC | IC50 | 3.3 µM |
| CC(=O)ONc1ccc(S(=O)(=O)N(CC(C)C)C[C@@H](O)[C@H](Cc2ccccc2)NC(=O)CN2C(=O)c3ccccc3C2=O)cc1 |  | IC50 | 0.02 µM |
| COC(=O)/C(O)=C1\C[C@@]2(C)C(C(=O)C[C@]3(C)C2C/C(=C\O)C2[C@@H]([C@@]4(C)CCCC(C)(C)O4)CC[C@]23C)C1(C)C | HPLC | IC50 | >193 µM |
| C=CCCOC(=O)NCCC(C)(C)CN(C[C@@H](O)[C@H](Cc1ccccc1)NC(=O)O[C@H]1CO[C@H]2OCC[C@H]21)S(=O)(=O)c1ccc2c(c1)OCO2 | fluorescence | Ki | <0.001 µM |
| COC(=O)CCCCC(=O)O[C@H]1CC[C@@]2(C)C(CC[C@]3(C)C2CC=C2C4CC(C)(C)CC[C@]4(C(=O)OC)CC[C@]23C)C1(C)C | HPLC | IC50 | >20 µM |
| COc1ccc(S(=O)(=O)N(CC(C)C)C[C@@H](O)[C@H](Cc2ccccc2)NC(=O)c2ccncc2)cc1 |  | IC50 | 0.018 µM |
| C=C(C)C1CC[C@]2(C(=O)O)CC[C@]3(C)[C@H](CC[C@@H]4[C@@]5(C)CC[C@H](OC(=O)CCC(=O)O)C(C)(C)[C@@H]5CC[C@]43C)[C@@H]12 | HPLC | IC50 | 6 µM |
| CC(C)C[C@@H](CC[C@@H](Cc1ccccc1)C(=O)N[C@H](C(=O)N[C@H](C(N)=O)C(C)C)C(C)C)NC(=O)[C@@H](NC(=O)[C@@H](NC(=O)OC(C)(C)C)C(C)C)C(C)C |  | IC50 | >10 µM |
| CCCCCCCCCCCC(=O)O[C@@H]1C[C@]2(C)[C@H]3CC=C4[C@@H]5CC(C)(C)CC[C@]5(C(=O)OCc5ccccc5)CC[C@@]4(C)[C@]3(C)CC[C@H]2C(C)(C)[C@H]1O | FRET | IC50 | >1200 µg/mL |
| CCCCS(=O)(=O)NCCCC(C)(C)CN(C[C@@H](O)[C@H](Cc1ccccc1)NC(=O)O[C@H]1CO[C@H]2OCC[C@H]21)S(=O)(=O)c1ccc2c(c1)OCO2 | fluorescence | Ki | <0.001 µM |
| C[C@@H]1CC[C@]2(C(=O)O)CC[C@]3(C)C(=CCC4[C@@]5(C)CC[C@H](OC(=O)CCCC(=O)O)C(C)(C)C5CC[C@]43C)C2[C@H]1C | HPLC | IC50 | 4 µM |
| COc1ccc(S(=O)(=O)N(C[C@@H](O)[C@H](Cc2ccccc2)NC(=O)OC(C)(C)C)CC(C)(C)CCC#N)cc1 | fluorescence | Ki | <0.001 µM |
| CC[C@H](C)[C@H](NC(=O)[C@H](C(C)C)[C@@H](O)[C@H](O)[C@H](CC1CCCCC1)NC(=O)[C@H](Cc1cnc[nH]1)NC(=O)[C@H](Cc1ccccc1)NC(=O)OC(C)(C)C)C(=O)NCc1ccccn1 |  | Ki | 0.003 µM |
| CC(C)(CCCNC(=O)c1ccc(F)cc1)CN(C[C@@H](O)[C@H](Cc1ccccc1)NC(=O)O[C@H]1CO[C@H]2OCC[C@H]21)S(=O)(=O)c1ccc2c(c1)OCO2 | fluorescence | Ki | <0.001 µM |
| CC(C)(CC(=O)O)CC(=O)O[C@@H]1C[C@]2(C)[C@H]3CC=C4[C@@H]5CC(C)(C)CC[C@]5(C(=O)OCc5ccccc5)CC[C@@]4(C)[C@]3(C)CC[C@H]2C(C)(C)[C@H]1O | FRET | IC50 | >1200 µg/mL |
| C=C(C)[C@@H]1CC[C@]2(C(=O)O)CC[C@]3(C)[C@H](CC[C@@H]4[C@@]5(C)CC[C@H](OC(=O)CCCC(=O)O)C(C)(C)[C@@H]5CC[C@]43C)[C@@H]12 | HPLC | IC50 | 4 µM |
| CC(=O)O[C@@H]1C[C@]2(C)[C@H]3CC=C4[C@@H]5CC(C)(C)CC[C@]5(C(=O)OCc5ccccc5)CC[C@@]4(C)[C@]3(C)CC[C@H]2C(C)(C)[C@H]1OC(C)=O | FRET | IC50 | >1200 µg/mL |
| CC1(C)CC[C@]2(C)CC[C@]3(C)C(=CC[C@@H]4[C@@]5(C)CC[C@H](O)C(C)(C)[C@@H]5CC[C@]43C)[C@@H]2C1 | HPLC | IC50 | >100 µM |
| COC(=O)[C@]12CCC(C)(C)CC1C1=CCC3[C@@]4(C)CC/C(=N\OC(=O)CCCCC(=O)O)C(C)(C)C4CC[C@@]3(C)[C@]1(C)CC2 | HPLC | IC50 | 4 µM |
| CCCC(=O)O[C@H]1CC[C@]2(C)[C@H]3CC=C4[C@@H]5CC(C)(C)CC[C@]5(C(=O)O)CC[C@@]4(C)[C@]3(C)CC[C@H]2C1(C)C | FRET | IC50 | >1200 µg/mL |
| CC(C)(CCOC(=O)NN)CN(C[C@@H](O)[C@H](Cc1ccccc1)NC(=O)O[C@H]1CO[C@H]2OCC[C@H]21)S(=O)(=O)c1ccc2c(c1)OCO2 | fluorescence | Ki | <0.001 µM |
| CC(C)CCN(C[C@@H](O)[C@H](Cc1ccccc1)NC(=O)OCc1ccccc1)S(=O)(=O)c1ccc([N+](=O)[O-])cc1 |  | IC50 | 0.01 µM |
| CCNC(=O)OCCCCC(C)(C)CN(C[C@@H](O)[C@H](Cc1ccccc1)NC(=O)O[C@H]1CO[C@H]2OCC[C@H]21)S(=O)(=O)c1ccc2c(c1)OCO2 | fluorescence | Ki | <0.001 µM |
| COC(=O)[C@]12CCC(C)(C)C[C@H]1C1=CC[C@@H]3[C@@]4(C)CC[C@H](OC(=O)CCCCC(=O)O)C(C)(C)[C@@H]4CC[C@@]3(C)[C@]1(C)CC2 | HPLC | IC50 | 7.5 µM |
| COCC(=O)NCCCCCC(C)(C)CN(C[C@@H](O)[C@H](Cc1ccccc1)NC(=O)O[C@H]1CO[C@H]2OCC[C@H]21)S(=O)(=O)c1ccc2c(c1)OCO2 | fluorescence | Ki | <0.001 µM |
| CCC(=O)O[C@@H]1C[C@]2(C)[C@H]3CC=C4[C@@H]5CC(C)(C)CC[C@]5(C(=O)OCc5ccccc5)CC[C@@]4(C)[C@]3(C)CC[C@H]2C(C)(C)[C@H]1OC(=O)CC | FRET | IC50 | >1200 µg/mL |
| CC(C)(CCCCNS(C)(=O)=O)CN(C[C@@H](O)[C@H](Cc1ccccc1)NC(=O)O[C@H]1CO[C@H]2OCC[C@H]21)S(=O)(=O)c1ccc(N)cc1 | fluorescence | Ki | <0.001 µM |
| C=C(C)[C@@H]1CC[C@]2(C(=O)O)CC[C@]3(C)[C@H](CC[C@@H]4[C@@]5(C)CC[C@H](OC(=O)C(=O)O)C(C)(C)C5CC[C@]43C)[C@@H]12 | HPLC | IC50 | 7 µM |
| CN=C(NC#N)NCCC(C)(C)CN(C[C@@H](O)[C@H](Cc1ccccc1)NC(=O)O[C@H]1CO[C@H]2OCC[C@H]21)S(=O)(=O)c1ccc2c(c1)OCO2 | fluorescence | Ki | <0.001 µM |
| CC1(C)CC[C@]2(C(=O)O)CC[C@]3(C)C(=CC[C@@H]4[C@@]5(C)CC[C@H](OC(=O)CCCCC(=O)O)C(C)(C)[C@@H]5CC[C@]43C)[C@@H]2C1 | HPLC | IC50 | 3 µM |
| CC(C)(CCCCCNS(=O)(=O)c1ccccc1)CN(C[C@@H](O)[C@H](Cc1ccccc1)NC(=O)O[C@H]1CO[C@H]2OCC[C@H]21)S(=O)(=O)c1ccc2c(c1)OCO2 | fluorescence | Ki | <0.001 µM |
| C=C1C[C@]2(C)C(C[C@@H](O)C3[C@@H]([C@@]4(C)CCCC(C)(C)O4)CC[C@]32C)[C@@]2(C)CC[C@H](O)C(C)(C)C12 | HPLC | IC50 | >217.1 µM |
| CCS(=O)(=O)NCCC(C)(C)CN(C[C@@H](O)[C@H](Cc1ccccc1)NC(=O)O[C@H]1CO[C@H]2OCC[C@H]21)S(=O)(=O)c1ccc2c(c1)OCO2 | fluorescence | Ki | <0.001 µM |
| CC(C)CN(C[C@@H](O)[C@H](Cc1ccccc1)NC(=O)CCCc1c[nH]c2ccccc12)S(=O)(=O)c1ccc(Br)cc1 |  | IC50 | >0.1 µM |